Results of unrelated studies side by side (data: NIAID ChemDB).

Shared fields: growth or infection tests; agent: Mycobacterium tuberculosis

Two numbers with a dash give a range or band. MIC bound: limit read from a one-dose screen. ECn: concentration that inhibits the pathogen or its effect by n%. Inhibition is in % at the dose shown (toxicity tests: loss of growth or viability). MIC50, MIC90 and the like: level of inhibition, or share of isolates inhibited. An empty or dashed field is not shown. Neighbouring rows are from separate reports.

compound	strain	changes	cell line	method	read-out	dose	value
c1ccc(CSc2ncnc3ccccc23)cc1	CNCTC TBC1/47	-	-	-	MIC	-	63 µM
Nc1ccc(-c2nnc(SCc3ccc(Cl)cc3Cl)n2C2CCCCC2)cc1	H37Rv	-	-	-	EC50	-	<6.25 µg/mL
c1ccc(CCNc2ncnc3ccccc23)cc1	H37Rv	-	-	luminescence	MIC50	-	>10 µM
Cn1c(=O)c2c(c3ccccc31)OC(C)(C)C=C2	H37Rv	-	-	BACTEC	inhibition	12.5 µg/mL	-13%
NNC(=O)c1ccncc1	TN587	-	-	-	MIC99	-	2.4 µg/mL
CC(=O)NC[C@H]1CN(c2ccc(-c3ccc(CNCc4cn[nH]n4)cc3)c(F)c2)C(=O)O1	-	-	-	low oxygen	EC90	-	0.31 µg/mL
C/C(=N\NC(=O)Cn1nc(N2CCN(c3ccc(F)cc3)CC2)ccc1=O)c1ccccc1	H37Rv	-	-	agar	MIC	-	20 µg/mL
c1ccc(CN(CCN(Cc2ccccn2)Cc2ccccn2)Cc2ccccn2)nc1	-	-	-	-	MIC50	-	4 µg/mL
C/C(=N\NC(=O)Cn1nc(N2CCN(c3ccccc3)CC2)ccc1=O)c1ccc(F)cc1	H37Rv	-	-	agar	MIC	-	20 µg/mL
c1ccc(CCNc2ncnc3ccsc23)cc1	H37Rv	-	-	luminescence	MIC50	-	>50 µM
CC(=O)c1ccccc1NNC(=O)N1CCN(c2nc(N3CCN(c4ccccc4)CC3)c3ccccc3n2)CC1	H37Rv	-	-	BACTEC / fluorescence	inhibition	6.25 µg/mL	0%
Clc1ccc(Oc2cccc(CNc3ncnc4ccccc34)c2)cc1	H37Rv	-	-	luminescence	MIC50	-	>50 µM
COc1ccc(-c2oc3cc(OC)c(OC)c(O)c3c(=O)c2O)cc1O	H37Rv	-	-	BACTEC	MIC bound	-	>12.8 µg/mL
O=S(=O)(Nc1cc2[nH]c(C3CCCCC3)nc2cc1SCCc1ccccc1)c1ccccc1	H37Rv	-	-	resazurin	inhibition	1 µg/mL	30%
CC1(C)CC(=O)C(C=Nc2ccccc2O)=C(O)C1	H37Rv	-	-	visual reading	MIC	-	2.5 µg/mL
C1CCNC1.S=C(S)N1CCCC1	H37Rv	-	-	BACTEC	inhibition	12.5 µg/mL	99%
COc1ccc2nc(C)cc(NCCc3ccc(OC(F)(F)F)cc3)c2c1	H37Rv	-	-	luminescence	MIC50	-	>20 µM
Nc1nnc2nc3c4ccccc4c4ccccc4c3nn12	H37Rv	-	-	BACTEC	MIC	-	3.13 µg/mL
Cc1ccccc1NNC(=O)N1CCN(c2nc(N3CCN(c4ccccc4)CC3)c3ccccc3n2)CC1	H37Rv	-	-	agar / visual reading	inhibition	200 µg/mL	89%
CC(C)Sc1ncnc2ccccc12	CNCTC TBC1/47	-	-	-	MIC	-	125 µM
NNC(=O)c1ccncc1	H37Rv	-	-	visual reading	MIC	-	0.312 µg/mL
CC(C)[C@H]1CO[C@]23CCN(Cc4ccccc4)C[C@H]2CC(=O)N13	H37Rv	-	-	resazurin	MIC98	-	<1 µM
O=c1nc2n(CC(O)C(O)C(O)C(O)CO)c3ccc(Cl)cc3nc-2c(=O)[nH]1	H37Rv	-	-	BACTEC	inhibition	12.5 µg/mL	14%
CC[C@@H]1C[C@@H]2CN(Cc3ccc(C(F)(F)F)cc3)CC[C@@]23OC[C@H](C(C)C)N3C1=O	H37Rv	-	-	resazurin	MIC98	-	<98 µM
C[C@@H]1CC[C@@H]([C@@H](C)[C@H]2[C@@H](O)C[C@H]3[C@@H]4CC[C@H]5C[C@@H](O)CC[C@]5(C)[C@H]4CC[C@]23C)NC1	H37Rv	-	-	BACTEC	inhibition	128 µg/mL	77%
Fc1ccc2c(Nc3ccc(-c4ccc(C(F)(F)F)cc4)cc3)ncnc2c1	H37Rv	-	-	luminescence	MIC50	-	>10 µM
CC(COc1ccccc1)NC(C)C(O)c1ccc(O)cc1	-	-	-	-	MIC50	-	>128 µg/mL
C/C(=N\NC(=O)Cn1nc(N2CCN(c3ccc(Cl)cc3)CC2)ccc1=O)c1ccc(Cl)cc1	H37Rv	-	-	agar	MIC	-	40 µg/mL
Fc1ccc2c(Nc3ccc(NCCN4CCOCC4)cc3)ncnc2c1	H37Rv	-	-	luminescence	MIC50	-	>10 µM
[N-]=[N+]=CC(=O)OC[C@@H]1NC(=O)[C@H](COC(=O)C=[N+]=[N-])NC1=O	H37Rv	-	-	BACTEC	MIC bound	-	>12.5 µg/mL
O=C(O)c1ccc(NNC(=O)N2CCN(c3nc(N4CCN(c5ccccc5)CC4)c4ccccc4n3)CC2)cc1	H37Rv	-	-	BACTEC / fluorescence	MIC	-	>6.25 µg/mL
CC(=O)NC[C@H]1CN(c2ccc(N3CCOCC3)c(F)c2)C(=O)O1	-	-	-	-	MIC90	-	0.25 µg/mL
C=CCn1c(SCc2ccc(Cl)cc2Cl)nnc1-c1ccc(N=Cc2ccc(F)cc2)cc1	H37Rv	-	-	-	EC50	-	>6.25 µg/mL
CCCCSc1ncnc2ccccc12	CNCTC TBC1/47	-	-	-	MIC	-	63 µM
O=Cc1ccc(NNC(=O)N2CCN(c3nc(N4CCN(c5ccccc5)CC4)c4ccccc4n3)CC2)cc1	H37Rv	-	-	agar / visual reading	MIC	-	50 µg/mL
Cc1ncc([N+](=O)[O-])n1C(C)C(=O)Nc1ccc(N(CCCl)CCCl)cc1	H37Rv	-	-	resazurin	MIC bound	-	>6.25 µg/mL
O=C(O)c1ccc(Sc2nnc(N3CCN(c4nc(N5CCN(c6ccccc6)CC5)c5ccccc5n4)CC3)o2)cc1	H37Rv	-	-	BACTEC / fluorescence	MIC	-	>6.25 µg/mL
Fc1ccc2c(Nc3ccc(Oc4cccc(C(F)(F)F)c4)cc3)ncnc2c1	H37Rv	-	-	luminescence	MIC50	-	>20 µM
Cc1c(CN2CCSCC2)cc(-c2ccc(Cl)cc2)n1-c1ccc(F)cc1	103471	-	-	-	MIC	-	1 µg/mL
Cn1c(SCc2ccc(Cl)cc2Cl)nnc1-c1ccc(N=Cc2c(Cl)cccc2Cl)cc1	H37Rv	-	-	-	inhibition	6.25 µg/mL	<50%
Fc1ccc2c(Nc3ccc(N4CCN(c5ccc(C(F)(F)F)cc5)CC4)c(F)c3)ncnc2c1	H37Rv	-	-	luminescence	MIC50	-	>50 µM
CO/N=C(\C(=O)N[C@@H]1C(=O)N2C(C(=O)O)=C(COC(C)=O)CS[C@H]12)c1csc(N)n1	16 strains	-	-	-	MIC	-	200–1600 µg/mL
O=C(O)c1cc(-c2ccc(O)c(O)c2)nc2cc3ccccc3cc12	H37Rv	-	-	BACTEC	MIC bound	-	>12.5 µg/mL
FC(F)(F)c1ccc(CCNc2ncnc3ccsc23)cc1	H37Rv	-	-	luminescence	MIC50	-	>50 µM
CC1(C)Oc2cc(O)c(C(=O)/C=C/c3ccccc3)c(O)c2CC1O	H37Rv	-	-	-	MIC	-	50 µg/mL
FC(F)(F)c1ccc(CNc2ncnc3ccccc23)cc1	H37Rv	-	-	luminescence	MIC50	-	>20 µM
Cc1cn2c(C(=O)NCc3ccc(N4CCN(c5ccc(C(F)(F)F)cn5)CC4)c(F)c3)c(C)nc2s1	H37Rv	-	Human liver microsomes	luminescence	EC50	-	>20 µM
C=C1C(=O)OCC2C(C(=O)O)=CC3C(C)C(C)=CC123	H37Rv	-	-	BACTEC	inhibition	12.8 µg/mL	83%
NC(=O)c1ncn([C@@H]2O[C@H](CO)[C@@H](O)[C@H]2O)n1	-	-	-	-	MIC50	-	16 µg/mL
C/C(=N\NC(=O)Cn1nc(N2CCN(c3ccccc3)CC2)ccc1=O)c1ccc(Br)cc1	H37Rv	-	-	agar	MIC	-	5 µg/mL
Nc1nc(N)c2c(-c3ccccc3)ccnc2n1	H37Rv	-	-	resazurin	MIC bound	-	>6.25 µg/mL
CC[C@@H](C)[C@H]1CO[C@]23CCN(Cc4ccccc4)C[C@H]2CCC(=O)N13	H37Rv	-	-	resazurin	MIC98	-	1–10 µM
CC(C)=CCC/C(C)=C/CNc1ncnc2ccsc12	H37Rv	-	-	luminescence	MIC50	-	>40 µM
O=NNc1ccc(F)cn1	H37Rv	-	-	BACTEC	inhibition	12.5 µg/mL	79%
CC(=O)c1ccccc1Sc1nnc(N2CCN(c3nc(N4CCN(c5ccccc5)CC4)c4ccccc4n3)CC2)o1	H37Rv	-	-	agar / visual reading	MIC	-	200 µg/mL
FC(F)(F)Oc1cccc(CCNc2ncnc3ccccc23)c1	H37Rv	-	-	luminescence	MIC50	-	>20 µM
Oc1cc(CNC2CCCCC2)ccc1Oc1ccc(Cl)cc1Cl	V2475	INH RIF resistant	-	MTT	MIC	-	12.5 µg/mL
Cc1cc(N=Nc2c(O)c3ccccc3[nH]c2=O)ccc1N=Nc1ccc(C(=O)N(C)C)cc1	H37Rv	-	-	BACTEC	MIC bound	-	>12.5 µg/mL
Cc1c(CN2CCN(C)CC2)cc(-c2cccc3ccccc23)n1-c1ccccc1	103471	-	-	-	MIC	-	>16 µg/mL
CCCCOC(=O)c1ccc2n[nH]nc2c1	H37Ra	-	-	visual reading	MIC	-	200 µM
C=CCSc1ncnc2ccccc12	CNCTC TBC1/47	-	-	-	MIC	-	250 µM
CC(C)[C@H]1CO[C@]23CCN(C4CCC4)C[C@H]2CCC(=O)N13	H37Rv	-	-	resazurin	MIC98	-	>10 µM
CCN(CC)CCN1C(=O)C(=O)N(c2cccc3ccccc23)C1=O.Cl	H37Rv	-	-	BACTEC	MIC bound	-	>12.5 µg/mL
CCSc1ncnc2ccccc12	CNCTC TBC1/47	-	-	-	MIC	-	125 µM
Oc1cc(-c2cc(-c3ccccc3)on2)ccc1Oc1ccc(Cl)cc1Cl	H37Rv	-	-	MTT	MIC	-	>100 µg/mL
O=c1[nH]c2c(Cl)cc(Cl)cc2c2ccccc12	H37Rv	-	-	BACTEC	inhibition	12.5 µg/mL	-1%
CCCCOC(=O)c1ccc2nccnc2c1	H37Ra	-	-	visual reading	MIC	-	50 µM
Cc1cc(C(=O)NCc2ccc(Oc3ccc(Cl)cc3Cl)c(O)c2)no1	V2475	INH RIF resistant	-	MTT	MIC	-	40 µg/mL
Cc1c(CN2CCN(C)CC2)cc(-c2ccc(Cl)cc2)n1-c1ccc(F)cc1	103471	-	-	-	MIC	-	2 µg/mL
O=C(OCCNc1ccccc1)Oc1c(Cl)cc(Cl)c(Cl)c1[N+](=O)[O-]	H37Rv	-	-	BACTEC	MIC	-	8 µg/mL
NCc1ccccc1CC(=O)N[C@@H]1C(=O)N2C(C(=O)O)=C(CSc3nnnn3CC(=O)O)CS[C@H]12	16 strains	-	-	-	MIC	-	200–400 µg/mL
CCOc1ccn(C2OC(COC(C)=O)C(OC(C)=O)C(OC(C)=O)C2Nc2ccc([N+](=O)[O-])cc2[N+](=O)[O-])c(=O)n1	H37Rv	-	-	BACTEC	MIC bound	-	>12.5 µg/mL
O=C(NNc1cccc([N+](=O)[O-])c1)N1CCN(c2nc(N3CCN(c4ccccc4)CC3)c3ccccc3n2)CC1	H37Rv	-	-	BACTEC / fluorescence	MIC	-	>6.25 µg/mL
NC(c1ccccc1)(C(F)(F)F)P1(=O)OC(=O)c2ccccc2O1	H37Rv	-	-	resazurin	MIC bound	-	>6.25 µg/mL
O=S1(=O)CCN(c2ccc(CNc3ncnc4ccsc34)cc2)CC1	H37Rv	-	-	luminescence	MIC50	-	>40 µM
C=CCCC(=O)ONc1cc2[nH]c(C3CCCCC3)nc2cc1Oc1ccc(F)cc1	H37Rv	-	-	resazurin	inhibition	1 µg/mL	54%
Cc1nc(Nc2ccc(Oc3cccc(C(F)(F)F)c3)cc2)c2ccccc2n1	H37Rv	-	-	luminescence	MIC50	-	>20 µM
COc1ccccc1Sc1nnc(N2CCN(c3nc(N4CCN(c5ccccc5)CC4)c4ccccc4n3)CC2)o1	H37Rv	-	-	BACTEC / fluorescence	MIC	-	>6.25 µg/mL
FC(F)(F)c1ccccc1CCNc1ncnc2ccsc12	H37Rv	-	-	luminescence	MIC50	-	>50 µM
COC1=C(C)C(=O)c2cc(=O)n(C)cc2C1=O	Matsudo	-	-	-	MIC	-	1.56 µg/mL
Oc1cc(Cl)ccc1Oc1ccc(Cn2ccnn2)cc1Cl	H37Rv	-	-	MTT	MIC	-	100 µg/mL
O=c1n(CC2CO2)c(=O)n(CC2CO2)n1CC1CO1	H37Rv	-	-	resazurin	MIC bound	-	>6.25 µg/mL
Cn1c(SCc2ccc(Cl)cc2Cl)nnc1-c1ccc(N=Cc2ccc(F)cc2)cc1	H37Rv	-	-	-	EC50	-	>6.25 µg/mL
O=C1CCCCCCCCCCCC(=O)OCO1	H37Rv	-	-	BACTEC	inhibition	12.5 µg/mL	4%
FC(F)(F)Oc1ccc(CCNc2ncnc3cc(C(F)(F)F)ccc23)cc1	H37Rv	-	-	luminescence	MIC50	-	>20 µM

5 of the rows above, restated:

compound	strain	changes	cell line	method	read-out	dose	value
Clc1ccc(Oc2cccc(CNc3ncnc4ccccc34)c2)cc1	H37Rv	-	-	luminescence	MIC50	-	>50 µM
O=c1nc2n(CC(O)C(O)C(O)C(O)CO)c3ccc(Cl)cc3nc-2c(=O)[nH]1	H37Rv	-	-	BACTEC	inhibition	12.5 µg/mL	14%
Cc1cn2c(C(=O)NCc3ccc(N4CCN(c5ccc(C(F)(F)F)cn5)CC4)c(F)c3)c(C)nc2s1	H37Rv	-	Human liver microsomes	luminescence	EC50	-	>20 µM
CC(C)=CCC/C(C)=C/CNc1ncnc2ccsc12	H37Rv	-	-	luminescence	MIC50	-	>40 µM
NC(c1ccccc1)(C(F)(F)F)P1(=O)OC(=O)c2ccccc2O1	H37Rv	-	-	resazurin	MIC bound	-	>6.25 µg/mL